PubChem BioAssay AID1259414 – Drosophila RNAi Screening Center, 2018

Test: 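Genome-wide screen for host control of endosymbiont load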 (primary screen)
System: Drosophila JW18 cells infected with Wolbachia
Reagents: long dsRNA against Drosophila genes, 0.25 µg dsRNA per well of a 384-well plate
Timing: 5 days
Conditions: cells persistently infected with Wolbachia before knock-down; no added drug
Measured: 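Imaged fluorescence in situ signal for Wolbachia 23S rRNA per DAPI-counted host cell, given as a robust z-score within each plate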
Reading the numbers: Wolbachia per cell robust z: higher = more Wolbachia per host cell than the plate typical
Hit rule: 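Hit when robust z is 1.5 or more, or -1.5 or less, in at least two of three replicates; excludes dsRNAs with several or no targets, genes not expressed in JW18 and well A1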
In all, the deposit lists about 24,000 reagents; this is an unselected part of those that have a named target and a result. Over the whole deposit, about 1,210 (5%) are marked active. 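Inactive calls also include excluded dsRNAs with several or no targets, genes unexpressed in JW18, and well A1, regardless of score.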 The numbers tell different reagents against one gene apart.

eIF3f1 #1 gave Wolbachia per cell robust z, rep 1 = 3.1; Wolbachia per cell robust z, rep 2 = 2.23; Wolbachia per cell robust z, rep 3 = 3.61; active.
With knock-down of eIF3f1 #2 the results were Wolbachia per cell robust z, rep 1 = 0.467; Wolbachia per cell robust z, rep 2 = 1.48; Wolbachia per cell robust z, rep 3 = -0.451; inactive.
Iru scored Wolbachia per cell robust z, rep 1 = 1.17; Wolbachia per cell robust z, rep 2 = 0.0227; Wolbachia per cell robust z, rep 3 = 1.13; inactive.
Silencing of Acsx2 resulted in: Wolbachia per cell robust z, rep 1 = -0.437; Wolbachia per cell robust z, rep 2 = 0.0381; Wolbachia per cell robust z, rep 3 = 0.384; inactive.
After knock-down of RpL12 the results were Wolbachia per cell robust z, rep 1 = 1.35; Wolbachia per cell robust z, rep 2 = 4.17; Wolbachia per cell robust z, rep 3 = 1.99; active.
After knock-down of CG5011, the screen gave Wolbachia per cell robust z, rep 1 = -5.47; Wolbachia per cell robust z, rep 2 = -7.54; Wolbachia per cell robust z, rep 3 = 0.193; inactive.
Against Obp47a #1, the entry reads Wolbachia per cell robust z, rep 1 = 0.539; Wolbachia per cell robust z, rep 2 = -0.0105; Wolbachia per cell robust z, rep 3 = 0.902; inactive.
Silencing of Obp47a #2 gave: Wolbachia per cell robust z, rep 1 = 0.425; Wolbachia per cell robust z, rep 2 = -0.112; Wolbachia per cell robust z, rep 3 = -0.746; inactive.
Depletion of CG13843 came out at: Wolbachia per cell robust z, rep 1 = 0.439; Wolbachia per cell robust z, rep 2 = -1.52; Wolbachia per cell robust z, rep 3 = -0.0654; inactive.
For CG30458 the deposit lists Wolbachia per cell robust z, rep 1 = 0.891; Wolbachia per cell robust z, rep 2 = 1.93; Wolbachia per cell robust z, rep 3 = 1.27; inactive.
Silencing of Trm7-32 came out at: Wolbachia per cell robust z, rep 1 = -0.662; Wolbachia per cell robust z, rep 2 = 0.948; Wolbachia per cell robust z, rep 3 = -1.55; inactive.
Silencing of CG15046 resulted in: Wolbachia per cell robust z, rep 1 = 1.12; Wolbachia per cell robust z, rep 2 = -0.417; Wolbachia per cell robust z, rep 3 = -0.319; inactive.
After knock-down of grk, the screen gave Wolbachia per cell robust z, rep 1 = -1.54; Wolbachia per cell robust z, rep 2 = -0.799; Wolbachia per cell robust z, rep 3 = -0.364; inactive.
Knock-down of Baldspot came out at: Wolbachia per cell robust z, rep 1 = 0.15; Wolbachia per cell robust z, rep 2 = -0.601; Wolbachia per cell robust z, rep 3 = -0.286; inactive.
Against prom #1, the entry reads Wolbachia per cell robust z, rep 1 = 0.375; Wolbachia per cell robust z, rep 2 = 0.781; Wolbachia per cell robust z, rep 3 = 0.315; inactive.
After knock-down of prom #2, the record shows Wolbachia per cell robust z, rep 1 = -0.293; Wolbachia per cell robust z, rep 2 = -0.14; Wolbachia per cell robust z, rep 3 = -0.266; inactive.
With knock-down of prom #3 the results were Wolbachia per cell robust z, rep 1 = 0.0464; Wolbachia per cell robust z, rep 2 = 0.659; Wolbachia per cell robust z, rep 3 = -0.869; inactive.
prom #4 scored Wolbachia per cell robust z, rep 1 = 1.72; Wolbachia per cell robust z, rep 2 = 0.0796; Wolbachia per cell robust z, rep 3 = 0.386; inactive.
Depletion of prom #5 came out at: Wolbachia per cell robust z, rep 1 = 0.326; Wolbachia per cell robust z, rep 2 = 0.445; Wolbachia per cell robust z, rep 3 = -0.135; inactive.
prom #6 gave Wolbachia per cell robust z, rep 1 = 0.377; Wolbachia per cell robust z, rep 2 = -2.6; Wolbachia per cell robust z, rep 3 = -0.0847; inactive.

Reformatted: entries from further up.
target | reagent | Wolbachia per cell robust z, rep 1 | Wolbachia per cell robust z, rep 2 | Wolbachia per cell robust z, rep 3 | call
CG13843 | 1 | 0.439 | -1.52 | -0.0654 | inactive
CG30458 | 1 | 0.891 | 1.93 | 1.27 | inactive
Trm7-32 | 1 | -0.662 | 0.948 | -1.55 | inactive
